In PubChem BioAssay AID1117282 (The Scripps Research Institute Molecular Screening Center, 2014):
Only a part is listed here, and it is no random draw. Calls of active or inactive are those of the source.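 How the source made its calls: active means mean inhibition across replicates above a set limit taken from the earlier primary screen (cut at about 11% in these data); inactive means the rest.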

Chains of the proteins cited; added tags and fusions are not shown.
UniProt P86926, whole entry: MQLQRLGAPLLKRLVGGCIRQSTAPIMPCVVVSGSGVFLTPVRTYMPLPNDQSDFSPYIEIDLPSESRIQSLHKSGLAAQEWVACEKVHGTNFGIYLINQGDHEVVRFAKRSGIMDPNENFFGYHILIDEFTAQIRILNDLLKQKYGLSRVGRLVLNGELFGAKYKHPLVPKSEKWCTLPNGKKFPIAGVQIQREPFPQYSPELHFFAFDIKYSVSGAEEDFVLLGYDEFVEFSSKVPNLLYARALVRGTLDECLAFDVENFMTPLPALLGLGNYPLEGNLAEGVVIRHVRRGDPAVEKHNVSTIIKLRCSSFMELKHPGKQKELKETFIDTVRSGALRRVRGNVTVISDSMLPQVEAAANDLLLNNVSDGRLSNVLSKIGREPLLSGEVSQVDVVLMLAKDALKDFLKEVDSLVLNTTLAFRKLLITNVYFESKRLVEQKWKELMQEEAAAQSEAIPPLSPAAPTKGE

Target: RNA-editing ligase 1, mitochondrial (Trypanosoma brucei brucei) (UniProt P86926)
Assay: T. brucei editing ligase REL1 blockade – biochemical, FRET fluorescence, triplicate, confirmation (AID 1117282);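 further: 0% = REL1 with substrate and DMSO and 100% = REL1 plus control inhibitor NSC42067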
Details: TbREL1 RNA ligation, at 9.66 µM, hits give high values

Q: `N#Cc1ccc(C(=O)NCC2(N3CCCCC3)CCCCC2)cc1` was tested. Which inhibition did it give?
A: inactive: -0.22%
